According to PMC11098500:
“And” between values parts separate entries of the source, which are not always exact repeats. Equal entries are not always repeated.

Assays:
[1] = molecular target: domestic dog ACE2 ectodomain (residues 1-614), Fc-tagged (domestic dog); assay: SPR
[2] = molecular target: human ACE2 ectodomain (residues 1-615), Fc-tagged (human) (UniProt Q9BYF1); assay: SPR

Substance | koff [1] | kon [1] | Kd [2]
SARS-CoV-2 RBD (prototypic strain, residues 319-529), His-tagged (from UniProt P0DTC2 319-529) (domain or fragment) | 0.457 s⁻¹ and 0.546 s⁻¹ and 0.335 s⁻¹ | 882000 M⁻¹ s⁻¹ and 1.04e+06 M⁻¹ s⁻¹ and 652000 M⁻¹ s⁻¹ | –
SARS-CoV-2 RBD (residues 319-529), His-tagged (from UniProt P0DTC2 319-529) (domain or fragment; other documents disagree on this pair) | – | – | 31.7 nM
